Patent publication US7728034B2, “Treating neurological disorders using selective antagonists of persistent sodium current” (Allergan, Inc., priority 2003, dated 2010)

Sequences of proteins named here, by UniProt entry; tags and fusion partners are left off.
UniProt Q9NY46, whole entry: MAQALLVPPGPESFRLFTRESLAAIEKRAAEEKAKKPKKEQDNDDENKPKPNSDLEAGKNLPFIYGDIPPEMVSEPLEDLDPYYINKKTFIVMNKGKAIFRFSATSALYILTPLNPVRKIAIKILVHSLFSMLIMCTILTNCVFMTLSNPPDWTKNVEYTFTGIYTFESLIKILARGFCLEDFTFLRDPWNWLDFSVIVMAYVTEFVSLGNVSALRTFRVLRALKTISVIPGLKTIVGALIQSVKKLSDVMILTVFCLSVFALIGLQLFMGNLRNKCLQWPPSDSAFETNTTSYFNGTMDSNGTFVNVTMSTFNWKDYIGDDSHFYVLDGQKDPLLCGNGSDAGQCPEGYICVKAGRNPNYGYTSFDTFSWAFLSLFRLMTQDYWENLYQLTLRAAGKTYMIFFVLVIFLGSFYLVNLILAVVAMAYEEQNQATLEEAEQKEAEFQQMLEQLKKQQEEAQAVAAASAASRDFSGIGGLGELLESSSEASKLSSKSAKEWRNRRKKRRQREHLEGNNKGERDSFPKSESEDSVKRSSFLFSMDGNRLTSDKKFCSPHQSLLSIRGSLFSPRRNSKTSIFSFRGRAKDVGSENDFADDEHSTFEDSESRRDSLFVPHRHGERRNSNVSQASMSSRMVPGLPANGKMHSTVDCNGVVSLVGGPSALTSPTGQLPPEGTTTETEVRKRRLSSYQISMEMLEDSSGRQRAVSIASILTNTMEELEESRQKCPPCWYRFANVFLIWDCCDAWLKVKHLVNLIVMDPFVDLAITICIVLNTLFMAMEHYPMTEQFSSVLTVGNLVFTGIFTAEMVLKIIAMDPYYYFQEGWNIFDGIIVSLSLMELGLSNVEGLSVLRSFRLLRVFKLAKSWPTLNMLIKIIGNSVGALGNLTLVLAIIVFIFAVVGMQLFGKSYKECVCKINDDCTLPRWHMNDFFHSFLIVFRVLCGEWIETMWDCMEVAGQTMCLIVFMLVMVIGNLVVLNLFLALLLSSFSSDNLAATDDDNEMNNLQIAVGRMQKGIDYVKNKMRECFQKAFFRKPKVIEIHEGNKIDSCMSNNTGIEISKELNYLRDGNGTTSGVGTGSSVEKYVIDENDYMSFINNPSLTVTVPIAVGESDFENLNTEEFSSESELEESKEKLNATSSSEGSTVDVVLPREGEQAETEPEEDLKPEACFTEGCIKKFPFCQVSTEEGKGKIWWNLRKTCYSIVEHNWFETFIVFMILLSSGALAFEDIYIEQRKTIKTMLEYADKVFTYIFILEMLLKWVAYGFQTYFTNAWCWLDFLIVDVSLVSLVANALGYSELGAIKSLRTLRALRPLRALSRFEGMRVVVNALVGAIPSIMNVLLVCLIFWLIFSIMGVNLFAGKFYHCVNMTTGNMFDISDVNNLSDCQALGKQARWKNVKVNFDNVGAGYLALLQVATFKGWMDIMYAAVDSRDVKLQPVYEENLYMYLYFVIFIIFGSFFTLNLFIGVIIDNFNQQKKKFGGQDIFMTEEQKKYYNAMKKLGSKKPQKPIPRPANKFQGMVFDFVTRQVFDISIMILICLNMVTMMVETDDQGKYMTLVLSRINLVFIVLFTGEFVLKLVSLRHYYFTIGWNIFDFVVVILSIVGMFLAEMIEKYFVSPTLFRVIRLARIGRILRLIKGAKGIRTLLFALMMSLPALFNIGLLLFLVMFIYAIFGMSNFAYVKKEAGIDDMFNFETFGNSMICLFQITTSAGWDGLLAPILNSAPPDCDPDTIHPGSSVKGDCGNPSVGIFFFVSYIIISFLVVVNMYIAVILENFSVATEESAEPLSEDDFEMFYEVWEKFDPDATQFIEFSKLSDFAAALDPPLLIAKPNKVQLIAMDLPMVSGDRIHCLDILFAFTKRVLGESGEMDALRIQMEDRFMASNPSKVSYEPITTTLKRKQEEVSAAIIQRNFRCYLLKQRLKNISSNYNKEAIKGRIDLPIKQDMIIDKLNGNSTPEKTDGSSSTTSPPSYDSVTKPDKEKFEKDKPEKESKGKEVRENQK

Target: HEK cells expressing Nav1.3 channels (Homo sapiens, UniProt Q9NY46)

tetrotoxin [TTX, reference compound]
block of the persistent current: completely blocked | block of the transient current: completely blocked
